Laboratory results published in patent US4463182A, “Antibiotic roridin E-2” (dated 1984).
Values joined by “and” are separate entries in the source; they are usually repeats but may differ in a detail not shown here. Identical values can stand only once.

Tests used:
[1] = tested on: P388 Lymphatic Leukemia; assay: Antitumor Activity of Roridin E-2 Against P388 Lymphatic Leukemia in Mice; conditions: median survival time treated/control × 100, ≥ 125 considered active
[2] = tested on: B16 Melanocarcinoma; assay: Antitumor Activity of Roridin E-2 Against B16 Melanocarcinoma in Mice; conditions: 3.12 mg/kg/day, median survival time treated/control × 100

SMILES: CC1=CC(=O)OCC23CCC(C)=CC2OC2CC(OC(=O)C=CC=CC(C(C)O)OCC1)C3(C)C21CO1 (stereo not shown)
- T/C percent MST ([1]; 1.56 mg/kg/day): 127%
- T/C percent MST ([1]; 3.12 mg/kg/day): 131%
- T/C percent MST ([1]; 6.25 mg/kg/day): 166% and 165%
- T/C percent MST [2]: 269% and 202%
